A mixed list of measured activities; the numbers were collected in NIAID ChemDB.

Shared fields: growth or infection tests; organism: HIV-1; read-out: fold resistance

Fold resistance has wild type as its base. Blank or dashed fields: not listed here. Neighbouring rows are from separate reports.

smiles	mutations	strain	cell line	method	value
C[C@H](Cn1cnc2c(N)ncnc21)OCP(=O)(O)O	RT-M41L V118I M184V	Recombinant	HeLa	luciferase	1
Cc1cn([C@H]2C[C@H](N=[N+]=[N-])[C@@H](CO)O2)c(=O)[nH]c1=O	RT-K103N	NL4-3	CEM + CEM-SS	cytopathic effect / XTT	53.3
CCc1cc(NCc2nc3c(Cl)ccc(Cl)c3o2)c(=O)[nH]c1C	RT-L100I	NL4-3	MT-4	p24	2
Nc1ccn([C@H]2C=C[C@@H](CO)O2)c(=O)n1	RT-V75T T215Y	HXB2	CD4+HELA + HeLa	plaque count	3.33
CCc1c(C(=O)c2cc(C)cc(C)c2)n(CC2CC=CC2)c(=O)[nH]c1=O	RT-T139I	NL4-3	CEM + CEM-SS	cytopathic effect / XTT	1
Nc1nc(=O)n([C@H]2CS[C@@H](CO)O2)cc1F	RT-M184I	HXB2	HELA/CD4 + HELA CD4+	plaque count	0.248
CCN(c1nc(F)ccc1NC(C)(C)C)C1CCN(C(=O)c2cc3cc(NC(=O)N4CCN(C)CC4)ccc3[nH]2)CC1	K112M K113E V128I M200I H219P I401T R409K D437N L441P	IIIB	MT-2	p24 / ELISA	2.6
Cc1cn([C@H]2C[C@H](N=[N+]=[N-])[C@@H](CO)O2)c(=O)[nH]c1=O	RT-K65R	HXB2D (RT-K65R)	MT-4	p24	0.917
CC(C)=CCN1Cc2cccc3[nH]c(=S)n(c23)C[C@@H]1C	RT-A98G V108I	IIIB(TIBO-R(I))	CEM + CEM-SS	cytopathic effect / XTT	>1000
CC(C)CN(C[C@@H](O)[C@H](Cc1ccccc1)NC(=O)O[C@H]1CCOC1)S(=O)(=O)c1ccc(N)cc1	PR-D30N	NL4-3	MT-4	p24	0.25
Cc1ccnc2c1NC(=O)c1cccnc1N2C1CC1	RT-A98G V106I Y181C	BCF02	PBMC		210
Cc1cc(O)cc(S(=O)(=O)c2cccc(N)c2C#N)c1	RT-V106A Y181C		HeLa + HELA CD4+	β-galactosidase	33.3
C[C@H](Cn1cnc2c(N)ncnc21)OCP(=O)(O)O	RT-T69D	JF4A ddC-resistant (RT T69D)	MT-2	p24	0.706
Nc1nc(NC2CC2)c2ncn([C@H]3C=C[C@@H](CO)C3)c2n1	RT-T69G		MT-2	p24	7.2
Cc1occc1C(=S)Nc1ccc(Cl)c(/C=N/OC(C)(C)C)c1	RT-V179D	IIIB	CEM	syncytia	15.45
COc1cc(C(F)(F)F)cc(S(=O)(=O)c2cccc(N)c2C#N)c1	RT-K103N V108I		HeLa + HELA CD4+	β-galactosidase	714
Nc1ccn([C@H]2CC[C@@H](CO)O2)c(=O)n1	RT-P294S	HXB2-D294 (RT-P294S)	MT-4	RT activity	1.05
CCOCn1c(Cc2cc(C)cc(C)c2)c(CC)c(=O)[nH]c1=O	RT-K103N	IIIB TIBO R82913-resistant (RT K103N)	CEM	syncytia	6.67
Cc1cn([C@H]2C[C@H](N=[N+]=[N-])[C@@H](CO)O2)c(=O)[nH]c1=O	LPV-P31 lopinavir-resistant mutant	IIIB	MT-2	ATP	1.3
O=C(NCc1ccc(F)cc1)c1nc(N2CCCCS2(=O)=O)c2cccnc2c1O	INTG-T66I N155S				190
O=C(N[C@H]1c2ccccc2OC[C@H]1O)[C@H](Cc1nnc(-c2ccccc2)o1)C[C@H](O)CN1CCN(Cc2ccc(-c3ccc(Cl)cc3)o2)C[C@H]1C(=O)NCC(F)(F)F	PR-L10I M36I N37D M46I R57K L63P A71V G73S I84V L90M I93L	V-18 Clinical isolate	MT-4	p24	16
Nc1nc2c(ncn2[C@H]2CO[C@@H](CO)O2)c(=O)[nH]1	RT-M41L D67N M184V L210W T215Y	RT M41L 67N 69D 184V 210W 215Y			1.4
Cc1ccnc2c1NC(=O)c1cccnc1N2C1CC1	RT-V179D	NL4-3	CEM + CEM-SS	cytopathic effect / XTT	1.5
Cc1cn([C@@H]2O[C@H](CO[Si](C)(C)C(C)(C)C)C3(OS(=O)(=O)C=C3N)[C@H]2O[Si](C)(C)C(C)(C)C)c(=O)n(C)c1=O	RT-L100I	IIIB	CEM	syncytia	0.64
c1ccc2c(c1)sc1nccn12	RT-Y181C	IIIB(N119(III))	CEM + CEM-SS	cytopathic effect / XTT	>200
CCOCn1c(Cc2ccccc2)c(CC)c(=O)[nH]c1=O	RT-K103N	IIIB TIBO R82913-resistant (RT K103N)	CEM	syncytia	60
Cc1cn([C@@H]2O[C@H](CO[Si](C)(C)C(C)(C)C)C3(OS(=O)(=O)C=C3N)[C@H]2O[Si](C)(C)C(C)(C)C)c(=O)n(C)c1=O	RT-Y181C	IIIB	CEM	cytopathic effect / XTT	107
Nc1nc(=O)n([C@@H]2CO[C@H](CO)S2)cc1F	RT-K65R	HXB2D (RT-K65R)	MT-2	RT activity	11.36
O=c1[nH]cnc2c1ncn2[C@H]1CC[C@@H](CO)O1	RT-D67N K70R Y181C T215Y K219Q	RTMC (RT-Y181C)	HT4 + HT4 LacZ-1	plaque count	1
CC(C)=CCOc1cc(NC(=S)c2ccoc2C)ccc1Cl	RT-L100I	IIIB	CEM	syncytia	19.44
Cc1cn([C@H]2C=C[C@@H](CO)O2)c(=O)[nH]c1=O	RT-Y181C	HXB2	MAGI (CCR5) + MAGI	β-galactosidase	0.68
Cc1cn([C@H]2C[C@H](N=[N+]=[N-])[C@@H](CO)O2)c(=O)[nH]c1=O	RT-P236L	IIIB	CEM + CEM-SS	cytopathic effect / XTT	0.2
CC(C)=CCN1Cc2cc(Cl)cc3[nH]c(=S)n(c23)C[C@@H]1C	RT-V106A	IIIB	CEM	cytopathic effect	31.25
Cc1nnc(C[C@H](C[C@H](O)CN2CCN(C(C)(C)c3ncc(-c4ccc(Cl)cc4)o3)C[C@H]2C(=O)NCC(F)(F)F)C(=O)N[C@H]2c3ccccc3OC[C@H]2O)o1	PR-L10I M46I I54V Q58E L63P I64V V77I V82F I84V L90M I93L	K-60 Clinical isolate	MT-4	p24	0.124
O=[N+]([O-])c1ccccc1S(=O)(=O)c1ccccc1	RT-V90I T139I P225S	IIIB(CALO-R(II))	CEM + CEM-SS	cytopathic effect / XTT	2.3
Cc1cn([C@@H]2O[C@H](CO[Si](C)(C)C(C)(C)C)C3(OS(=O)(=O)C=C3N)[C@H]2O[Si](C)(C)C(C)(C)C)c(=O)n(C)c1=O	RT-L100I	IIIB BHAP(RT-L100I)	CEM	syncytia	1.33
COc1cncc(-c2cnc(C(C)(C)N3CCN(C[C@@H](O)C[C@@H](Cc4nnc(-c5ccccc5)o4)C(=O)N[C@H]4c5ccccc5OC[C@H]4O)[C@H](C(=O)NCC(F)(F)F)C3)o2)c1	PR-L10I M36I N37D M46I R57K L63P A71V G73S I84V L90M I93L	V-18 Clinical isolate	MT-4	p24	>8
Cc1cn([C@@H]2O[C@H](CO[Si](C)(C)C(C)(C)C)C3(OS(=O)(=O)C=C3N)[C@H]2O[Si](C)(C)C(C)(C)C)c(=O)n(C)c1=O	RT-L100I	IIIB-BHAP)(0.1)(RT-L100I	CEM	syncytia	1.67
CCOCn1c(Sc2ccccc2)c(CC)c(=O)[nH]c1=S	RT-V106A	IIIB NEV(RT-V106A)	CEM	syncytia	22.5
Cc1nnc(C[C@H](C[C@H](O)CN2CCN(C(C)(C)c3ncc(-c4ccc(F)cc4)o3)C[C@H]2C(=O)NCC(F)(F)F)C(=O)N[C@H]2c3ccccc3OC[C@H]2O)o1	PR-L10I N37S R41K M46I I54V I62V L63P A71V V77I V82A L90M I93L	Q-60 Clinical isolate	MT-4	p24	0.248
O=c1[nH]cnc2c1ncn2[C@H]1CC[C@@H](CO)O1	RT-V179N	IIIB-Pyridinone(0.1)(RT-V179N	CEM	syncytia	1.74
Cc1cn([C@H]2C=C[C@@H](CO)O2)c(=O)[nH]c1=O	RT-T69G		MT-2	p24	6.3
Nc1nc(=O)n([C@@H]2CS[C@H](CO)O2)cc1F	RT-M184I	RF	MT-4	cytopathic effect / MTT	160
Nc1ccn([C@H]2CC[C@@H](CO)O2)c(=O)n1	RT-V179N	IIIB-Pyridinone(0.1)(RT-V179N	CEM	syncytia	0.4
C#C[C@@]1(CO)C=C[C@H](n2cc(C)c(=O)[nH]c2=O)O1	RT-K103N M184V	NL4-3	MAGI (CCR5) + MAGI	β-galactosidase	1.15
Nc1ccn([C@H]2CC[C@@H](CO)O2)c(=O)n1	RT-M184V	IIIB BCH-189-resistant (RT M184V)	MT-4	p24	5.78
Fc1cccc(F)c1C1SCc2nc3ccccc3n21	RT-Y181C	IIIB	CEM + CEM-SS	cytopathic effect / XTT	>27
Cc1ccnc2c1NC(=O)c1cccnc1N2C1CC1	RT-K101E	NL4-3 1 (RT K101E)	CEM + CEM-SS	XTT	15
Cc1c(Sc2ccccc2)n(COCCO)c(=O)[nH]c1=O	RT-L100I	IIIB BHAP(RT-L100I)	CEM	syncytia	5.33
O=c1[nH]cnc2c1ncn2[C@H]1CC[C@@H](CO)O1	RT-A98G K103R	BCF11	PBMC		0.529
Cc1cn([C@H]2C[C@H](N=[N+]=[N-])[C@@H](CO)O2)c(=O)[nH]c1=O	RT-T139I	NL4-3	CEM + CEM-SS	XTT	3
Fc1cccc(F)c1[C@@H]1SCc2nc3ccccc3n21	RT-V106N	IIIB	CEM	cytopathic effect / XTT	≥6.25
CC(C)=CCN1c2cc(Cl)cc3[nH]c(=S)n(c23)C[C@@H]1C	RT-L74V K103N		MT-4		8
Cc1cc(Cl)cc(S(=O)(=O)c2cccc(N)c2C#N)c1	RT-Y188C		HeLa + HELA CD4+	β-galactosidase	189
CC(C)=CCN1Cc2cc(Cl)cc3[nH]c(=S)n(c23)C[C@@H]1C	RT-Y181C	IIIB-TSAO-m3T(10)(RT-Y181C)	CEM	syncytia	42.9
Cc1cc(Br)cc(S(=O)(=O)c2cccc(N)c2C#N)c1	RT-K103N		HeLa + HELA CD4+	β-galactosidase	100
CC(=O)c1ccc(C)cc1NC(C(N)=O)c1c(Cl)cccc1Cl	RT-E138K	IIIB	MAGI	MTT	1.18
O=c1[nH]cnc2c1ncn2[C@H]1CC[C@@H](CO)O1	RT-V75T	HXB2	CD4+HELA + HeLa	plaque count	5.5
Fc1cccc(F)c1[C@H]1SCc2nc3ccccc3n21	RT-Y188C	IIIB	CEM	cytopathic effect / XTT	6.71
CC(C)(C)C(=O)c1sc(C(=O)NCCc2ccccc2)c(O)c1O	INTG-T66I				0.25
O=c1[nH]cnc2c1ncn2[C@H]1CC[C@@H](CO)O1	RT-I178L T215Y	NL4-3	MT-2	p24	2.125
CC1=C(C(=O)Nc2ccc(Cl)c(C(=O)OC(C)C)c2)SCCO1	RT-V90I T139I P225S	IIIB(CALO-R(II))	CEM + CEM-SS	cytopathic effect / XTT	1.3
CCc1c(Sc2ccccn2)n(COCc2ccccc2)c(=O)[nH]c1=O	RT-V90I T139I P225S	IIIB	CEM + CEM-SS	cytopathic effect / XTT	0.06
CCc1c(Sc2ccccn2)n(COCc2ccccc2)c(=O)[nH]c1=O	RT-T139I	Calanolide A-resistant (RT T139I)	CEM + CEM-SS	XTT	0.25
N#Cc1cc2[nH]c3ccccc3c2n(-c2ccc([N+](=O)[O-])cc2)c1=O	RT-A62T V118I M184V	Recombinant	HeLa	luciferase	6.3
CCOP(=O)(COc1ccc(C[C@H](NC(=O)O[C@H]2CO[C@H]3OCC[C@H]32)[C@H](O)CN(CC(C)C)S(=O)(=O)c2ccc(OC)cc2)cc1)OCC	I401T R409K D437N	IIIB	MT-2	p24 / ELISA	3.5
Cc1cn([C@H]2C[C@H](N=[N+]=[N-])[C@@H](CO)O2)c(=O)[nH]c1=O	RT-K65R K70R V75I F77L F116Y Q151M	NRTI resistant	HeLa	luciferase	>1
Nc1ccn([C@H]2CC[C@@H](CO)O2)c(=O)n1	RT-A98G K103R	BCF11	PBMC		0.333
CC(C)Oc1ccc(Cc2ccccc2)cc1C(=O)CC(=O)C(=O)O	INTG-N155H				1

A second listing of 8 rows from above:

{"smiles": "Nc1nc(=O)n([C@@H]2CS[C@H](CO)O2)cc1F", "mutations": "RT-M184I", "strain": "RF", "cell line": "MT-4", "method": "cytopathic effect / MTT", "value": "160"}
{"smiles": "CCOCn1c(Cc2ccccc2)c(CC)c(=O)[nH]c1=O", "mutations": "RT-K103N", "strain": "IIIB TIBO R82913-resistant (RT K103N)", "cell line": "CEM", "method": "syncytia", "value": "60"}
{"smiles": "Nc1nc(=O)n([C@@H]2CO[C@H](CO)S2)cc1F", "mutations": "RT-K65R", "strain": "HXB2D (RT-K65R)", "cell line": "MT-2", "method": "RT activity", "value": "11.36"}
{"smiles": "CCc1cc(NCc2nc3c(Cl)ccc(Cl)c3o2)c(=O)[nH]c1C", "mutations": "RT-L100I", "strain": "NL4-3", "cell line": "MT-4", "method": "p24", "value": "2"}
{"smiles": "Cc1cn([C@H]2C[C@H](N=[N+]=[N-])[C@@H](CO)O2)c(=O)[nH]c1=O", "mutations": "RT-T139I", "strain": "NL4-3", "cell line": "CEM + CEM-SS", "method": "XTT", "value": "3"}
{"smiles": "N#Cc1cc2[nH]c3ccccc3c2n(-c2ccc([N+](=O)[O-])cc2)c1=O", "mutations": "RT-A62T V118I M184V", "strain": "Recombinant", "cell line": "HeLa", "method": "luciferase", "value": "6.3"}
{"smiles": "Cc1c(Sc2ccccc2)n(COCCO)c(=O)[nH]c1=O", "mutations": "RT-L100I", "strain": "IIIB BHAP(RT-L100I)", "cell line": "CEM", "method": "syncytia", "value": "5.33"}
{"smiles": "CC(=O)c1ccc(C)cc1NC(C(N)=O)c1c(Cl)cccc1Cl", "mutations": "RT-E138K", "strain": "IIIB", "cell line": "MAGI", "method": "MTT", "value": "1.18"}